# Results from patent US9127303B2, “Method for detection of beta-D-glucuronidase activity in a sample” (Biosynth AG, priority 2011, dated 2015).
# Experiment: Broth in test tubes, sterile control (substrate without inoculum)
# Settings: NB, TBB, 0.1 mM, 37° C., 16 hours
structure (smiles),measurement,value
"O=C([O-])C1OC(Oc2ccc3nc4ccc(=O)cc-4oc3c2)C(O)C(O)C1O.[Na+] [Resorufin-beta-D-glucuronic acid, reference compound]","Result, colour scored visually",Negative
